Pooled drug test results. Numbers come from NIAID ChemDB, via PubChem.

Common to all: tests in culture; organism: Mycobacterium tuberculosis

MIC bound: limit read from a one-dose screen. Neighbouring rows are from separate reports. A number after MIC or MFC names an inhibition level or a share of isolates. Blank or dashed fields: not listed here. Inhibition is in % at the dose shown (toxicity tests: loss of growth or viability). ECn: concentration that inhibits the pathogen or its effect by n%.

smiles,measure,read by,tested at,strain or isolate,cells,result
Cc1ccc(SC2=CC(=O)c3nc4ccccc4c4ccnc2c34)cc1,MIC,,,H37Rv,,2.2 µM
CCCCCCCCCCCCCCC1(C)SC(=O)C(C)=C1O,MIC,,,H37Rv,,>1000 µM
O=C(N/N=C/c1ccccc1[N+](=O)[O-])c1ccccc1-c1nc2ccccc2[nH]1,EC50,,,H37Rv,,>0.031 µg/mL
NC1=CC(=O)c2nc3ccccc3c3ccnc1c23,MIC,,,H37Rv,,3.2 µM
CON=C1CCN(C2=C3NC(=O)/C(C)=C\C=C\[C@H](C)[C@H](O)[C@@H](C)[C@@H](O)[C@@H](C)[C@H](OC(C)=O)[C@H](C)[C@@H](OC)/C=C/O[C@@]4(C)Oc5c(C)c(O)c(c(c5C4=O)C2=O)C3=O)CC1,MIC,,,H37Rv,,0.00125 µg/mL
CSC[S@](=O)C[C@H](CO)NC(=O)/C=C/c1c(C)[nH]c(=O)[nH]c1=O,inhibition,BACTEC,12.8 µg/mL,H37Rv,,75%
CO[C@H]1/C=C/O[C@@]2(C)Oc3c(C)c(O)c4c(c3C2=O)C(=O)C(N2CCC(=NN3CCN(C)CC3)CC2)=C(NC(=O)/C(C)=C\C=C\[C@H](C)[C@H](O)[C@@H](C)[C@@H](O)[C@@H](C)[C@H](OC(C)=O)[C@@H]1C)C4=O,MIC,,,H37Rv,,0.0025 µg/mL
CO[C@H]1/C=C/O[C@@]2(C)Oc3c(C)c(O)c4c(O)c(c(/C=N/N5CCN(C6CCCC6)CC5)c(O)c4c3C2=O)NC(=O)/C(C)=C\C=C\[C@H](C)[C@H](O)[C@@H](C)[C@@H](O)[C@@H](C)[C@H](O)[C@@H]1C,MBC,,,Erdman,,1 µg/mL
CCC1(C)NC(=O)OC1=O,MIC bound,BACTEC,,H37Rv,,>12.5 µg/mL
CC(C)=CCC/C(C)=C/CC/C(C)=C/C1(C)SC(=O)C(C)=C1O,MIC,,,H37Rv,,>1000 µM
CCCCCCCC/C=C\CCCCCCCc1cc(O)c(C)c(O)c1,MIC,,,H37Rv,,59.4 µg/mL
N#CC1(c2nc3ccccc3o2)C(=O)C(=O)N(C2C3CC4CC(C3)CC2C4)C(=O)C1=O,MIC bound,resazurin,,H37Rv,,<6.25 µg/mL
O=C1/C(=C/c2ccco2)CNC/C1=C\c1ccco1,MIC,agar / visual reading,,H37Rv,,6.25 µg/mL
S=C(Nc1cc(Br)cc(Br)n1)Nc1ncc(C2CCC2)o1,MIC,agar,,MDR clinical isolate,,0.23 µM
COc1cc(O)cc(CCCCCCC/C=C\CCCCCc2cc(O)cc(O)c2)c1,MIC,,,H37Rv,,50.2 µg/mL
CCCCCCCCC1(C)SC(=O)C(C)=C1O,MIC,,,H37Rv,,500 µM
S=c1n(-c2ccc(Cl)cc2)c2nc3ccccc3nc(/c2=N\Nc2cc(Cl)ccc2Cl)n1-c1ccccn1,inhibition,BACTEC,12.5 µg/mL,H37Rv,,86%
C[C@H]1COc2c(N3CCN(C)CC3)c(F)cc3c(=O)c(C(=O)O)cn1c23,MIC,,,CSU28,,0.25 µg/mL
O=C(Cc1ccccc1Nc1c(Cl)cccc1Cl)N/N=C/c1ccccc1[N+](=O)[O-],MIC,,,H37Rv,,1.76 µM
CSc1ccc2c(c1)c(CCN)c(C)n2Cc1ccc(Cl)c(Cl)c1,MIC bound,BACTEC,,H37Rv,,≤6.25 µg/mL
C=C1C(=O)O[C@@H]2/C=C(\C)CC/C=C(\C)CC[C@@H]12,MIC,,,,,32 µg/mL
C[C@@H]1CN(c2c(F)c(N)c3c(=O)c(C(=O)O)cn(C4CC4)c3c2F)C[C@H](C)N1,MIC,,,CSU11,,≤0.125 µg/mL
CCCCCCCCSC1=CC(=O)c2nc3ccccc3c(C)c2C1=O,MIC,,,H37Rv,,17 µM
O=C(NN1C(=O)C(Cl)C1c1ccccc1Cl)c1ccccc1-c1nc2ccccc2[nH]1,EC50,,,H37Rv,,>0.031 µg/mL
c1ccc(N=C2C(=Nc3ccccc3)N(C3CCCCC3)C(=NC3CCCCC3)N2c2ccccc2)cc1,MIC bound,BACTEC,,H37Rv,,>12.5 µg/mL
O=C(Cc1ccccc1Nc1c(Cl)cccc1Cl)N/N=C(\c1ccccc1)c1ccc(Br)cc1,MIC,,,H37Rv,,0.36 µM
CCOC(=O)c1cc(-c2ccccc2)n(CC(=O)N/N=C/c2ccccc2O)c1C,inhibition,BACTEC,6.25 µg/mL,H37Rv,,8%
CO[C@H]1C[C@@H]2CC[C@@H](C)[C@@](O)(O2)C(=O)C(=O)N2CCCC[C@H]2C(=O)O[C@H]([C@H](C)C[C@@H]2CC[C@@H](O)[C@H](OC)C2)CC(=O)[C@H](C)/C=C(\C)[C@@H](O)[C@@H](OC)C(=O)[C@H](C)C[C@H](C)/C=C/C=C/C=C/1C,MIC,BACTEC,,H37Rv,,>4 µg/mL
CO[C@H]1/C=C/O[C@@]2(C)Oc3c(C)c(O)c4c(c3C2=O)C(=O)C(N2CCC(=NO)CC2)=C(NC(=O)/C(C)=C\C=C\[C@H](C)[C@H](O)[C@@H](C)[C@@H](O)[C@@H](C)[C@H](OC(C)=O)[C@@H]1C)C4=O,MIC,,,H37Rv,,0.0025 µg/mL
COc1c(N2CCN(C(=O)Cc3ccccc3Nc3c(Cl)cccc3Cl)C(C)C2)c(F)cc2c(=O)c(C(=O)O)cn(C3CC3)c12,MIC,,,H37Rv,,0.04 µM
CCOC(=O)c1cc(-c2ccccc2)n(CC(=O)NN)c1C,inhibition,BACTEC,6.25 µg/mL,H37Rv,,18%
C=C1C(=O)O[C@H]2[C@H]1CC/C(C)=C/CC[C@@]1(C)O[C@@H]21,MIC,,,,,16 µg/mL
O=S1(=O)c2ccccc2N(c2ccccc2)c2nnnn21,inhibition,resazurin,6.25 µg/mL,H37Rv,,20%
S=C(Nc1ccccc1)Nc1ncc(C2CCC2)o1,MIC,agar,,H37Rv,,11.46 µM
CCN(CC)CCNc1ccc(C)c2sc3c(OC)cccc3c(=O)c12,MIC,BACTEC,,H37Rv,VERO,12.5 µg/mL
CCOC(=O)CCSC1=CC(=O)c2nc3ccccc3c(C)c2C1=O,MIC,,,H37Rv,,17.6 µM
CCCCC(=O)c1cc(O)c(C)c(OC)c1,MIC,,,H37Rv,,12.8 µg/mL
COc1cc(/C=N/NC(=O)c2ccccc2-c2nc3ccccc3[nH]2)cc(OC)c1OC,inhibition,,0.031 µg/mL,H37Rv,,27%
Cc1coc(NS(=O)(=O)c2ccc(N=Nc3c(N)nc(N)[nH]c3=O)cc2)c1C,inhibition,BACTEC,12.5 µg/mL,H37Rv,,-3%
C(=C1/CNC/C(=C\c2ccco2)C1=NNc1ccccc1)/c1ccco1,MIC,agar / visual reading,,H37Rv,,1.56 µg/mL
O=C1c2cccnc2-c2nccc3c2c1nc1ccccc13,MIC,,,H37Rv,,0.35 µM
O=C(O)c1cn(C2CC2)c2c(F)c(N3CCSCC3)c(F)cc2c1=O,MIC,,,CSU12,,0.5 µg/mL
CN(C)c1ccc(C2C(Cl)C(=O)N2NC(=O)c2ccccc2-c2nc3ccccc3[nH]2)cc1,inhibition,,0.031 µg/mL,H37Rv,,7%
CCC1CN(c2c(F)cc3c(=O)c(C(=O)O)cn(C4CC4)c3c2OC)CCN1,MIC,,,Isolate TN3541,,0.2 µg/mL
COc1cc2c(c(OC)c1OC)-c1ccc(OC)c(=O)cc1C(NC1=C(Cl)C(=O)c3ccccc3C1=O)CC2,MIC,BACTEC,,H37Rv,,12.5 µg/mL
CCOC(=O)c1c(C)c(-c2ccccc2)n(CC(=O)NN)c1C,EC50,BACTEC,,H37Rv,,>6.25 µg/mL
N=C(N)N=C1/C(=C/c2ccco2)CNC/C1=C\c1ccco1,MIC,agar / visual reading,,H37Rv,,6.25 µg/mL
CCOC(=O)c1cc(-c2ccc(-c3ccccc3)cc2)n(CCC(=O)NN)c1C,inhibition,BACTEC,6.25 µg/mL,H37Rv,,0%
CC[C@@H](CO)NCCN[C@@H](CC)CO,MIC,agar / visual reading,,H37Rv,,3.125 µg/mL
CCS(=O)C1=CC(=O)c2nc3ccccc3c3ccnc1c23,MIC,,,H37Rv,,>20 µM
C[C@H](CC[C@H]1OC1(C)C)[C@H]1CC[C@@]2(C)[C@@H]3CC[C@H]4C(C)(C)[C@H](O)CC[C@@]45C[C@@]35CC[C@]12C,MIC,,,,,8 µg/mL
COC(C(=O)C1=C2Oc3c4c(cc(O)c3C(=O)C2C2=C(CCCC2)C1=O)OC(C)(C)C=C4)C(C)CCC=C(C)C,inhibition,BACTEC,128 µg/mL,H37Rv,,92%
O=C(NN1C(=O)C(Cl)C1c1ccco1)c1ccccc1-c1nc2ccccc2[nH]1,inhibition,,0.031 µg/mL,H37Rv,,68%
CCOC(=O)c1[nH]c(/C=N/NC(=O)c2c(C)c[nH]c2C)c(C(=O)OCC)c1C,EC50,BACTEC,,H37Rv,,<6.25 µg/mL
Cc1cccc(NC(=S)Nc2ncc(C3CCC3)o2)n1,MIC,agar,,MDR clinical isolate,,2.7 µM
Cc1cc(N(CCO)c2ccccc2)nc(N)n1,MIC bound,BACTEC,,H37Rv,,>12.5 µg/mL
Cc1c[nH]c(C)c1C(=O)N/N=C/c1c[nH]c2ccccc12,inhibition,BACTEC,6.25 µg/mL,H37Rv,,6%
CC1=C(O)C(C)SC1=O,MIC,,,H37Rv,,500 µM
Cc1cc(C)c(C#N)c(SC(C(=O)NC(C)(C)C)c2ccccc2)n1,inhibition,BACTEC,12.5 µg/mL,H37Rv,,-34%
COc1cc(O)cc(CCCCCCC/C=C\CCCCCCCc2cc(O)c(C)c(O)c2)c1,MIC,,,H37Rv,,47.1 µg/mL
OC1/C(=C/c2ccco2)CNC/C1=C\c1ccco1,MIC,agar / visual reading,,H37Rv,,12.5 µg/mL
CSC1C(=O)c2nccc3c2c(nc2ccccc23)C1CCNC(C)=O,MIC,,,H37Rv,,>17 µM
O=C(N/N=C/c1ccc(Cl)cc1)c1ccccc1-c1nc2ccccc2[nH]1,inhibition,,0.031 µg/mL,H37Rv,,42%
C/C=C/c1cc2c(c(=O)o1)C(=O)[C@@H](O)[C@H](C)O2,MIC,BACTEC,,H37Rv,,≥12.8 µg/mL
O=C(Cc1ccccc1Nc1c(Cl)cccc1Cl)N/N=C/c1ccccc1O,MIC,,,H37Rv,,7.53 µM
O=C(N/N=C/C=C/c1ccccc1)c1ccccc1-c1nc2ccccc2[nH]1,EC50,,,H37Rv,,0.031 µg/mL
NNC(=O)c1ccccn1,inhibition,BACTEC,12.5 µg/mL,H37Rv,,98%
CCCCCCC1(C)SC(=O)C(C)=C1O,MIC,,,H37Rv,,>1000 µM
Cc1nc2c(=O)n(C)c(=O)n(C)c2nc1CCC(=O)O,MIC bound,BACTEC,,H37Rv,,>12.5 µg/mL
Cc1c[nH]c(C)c1C(=O)NN,EC50,BACTEC,,H37Rv,,>6.25 µg/mL
C[N+](C)(C)CC(=O)N/N=C/c1cccc2ccccc12.[Cl-],inhibition,BACTEC,12.5 µg/mL,H37Rv,,3%
CC(C)(C)OC(=O)NCCNC1=CC(=O)c2nc3ccccc3c3ccnc1c23,MIC,,,H37Rv,,2 µM
CS(=O)(=O)OCC1OC(OC2(COS(C)(=O)=O)OC(COS(C)(=O)=O)C(O)C2O)C(OS(C)(=O)=O)C(O)C1O,inhibition,BACTEC,12.5 µg/mL,H37Rv,,-7%
CN1CCN(c2c(F)cc3c(=O)c(C(=O)O)cn(CCF)c3c2F)CC1,MIC90,,,,,3.13 µg/mL
CC1CN(c2c(F)cc3c(=O)c(C(=O)O)cn(C4CC4)c3c2F)CC(C)N1,MIC,,,CSU28,,≤0.125 µg/mL
O=[N+]([O-])c1ccc(NN=C2/C(=C/c3ccco3)CNC/C2=C\c2ccco2)c([N+](=O)[O-])c1,MIC,agar / visual reading,,H37Rv,,0.39 µg/mL
NC(=O)NNC(=O)c1ccco1,MIC bound,BACTEC,,H37Rv,,>12.5 µg/mL
S=C(Nc1cc(Cl)ccn1)Nc1ncc(C2CCC2)o1,MIC,agar,,MDR clinical isolate,,0.64 µM
CCCCCCCCCCCCCC1(C)SC(=O)C(C)=C1O,MIC,,,H37Rv,,1000 µM
O=S(=O)(OC1/C(=C/c2ccco2)CNC/C1=C\c1ccco1)c1ccccc1,MIC,agar / visual reading,,H37Rv,,3.125 µg/mL
CC/C(C)=C(/NC(=O)[C@H](C)NC(=O)[C@@H]1CCC=NN1C(=O)[C@@H](NC(=O)[C@H](C)NC(=O)C(N)(CO)CO)[C@H](C)N)C(=O)N[C@@H](CO)C(=O)O,MIC,,,Capreomycin-resistant,,12.5 µg/mL

9 of the rows above, restated:

smiles	measure	read by	tested at	strain or isolate	cells	result
CCN(CC)CCNc1ccc(C)c2sc3c(OC)cccc3c(=O)c12	MIC	BACTEC		H37Rv	VERO	12.5 µg/mL
CC(C)(C)OC(=O)NCCNC1=CC(=O)c2nc3ccccc3c3ccnc1c23	MIC			H37Rv		2 µM
CO[C@H]1C[C@@H]2CC[C@@H](C)[C@@](O)(O2)C(=O)C(=O)N2CCCC[C@H]2C(=O)O[C@H]([C@H](C)C[C@@H]2CC[C@@H](O)[C@H](OC)C2)CC(=O)[C@H](C)/C=C(\C)[C@@H](O)[C@@H](OC)C(=O)[C@H](C)C[C@H](C)/C=C/C=C/C=C/1C	MIC	BACTEC		H37Rv		>4 µg/mL
CCCCCCCCCCCCCCC1(C)SC(=O)C(C)=C1O	MIC			H37Rv		>1000 µM
N=C(N)N=C1/C(=C/c2ccco2)CNC/C1=C\c1ccco1	MIC	agar / visual reading		H37Rv		6.25 µg/mL
CO[C@H]1/C=C/O[C@@]2(C)Oc3c(C)c(O)c4c(c3C2=O)C(=O)C(N2CCC(=NO)CC2)=C(NC(=O)/C(C)=C\C=C\[C@H](C)[C@H](O)[C@@H](C)[C@@H](O)[C@@H](C)[C@H](OC(C)=O)[C@@H]1C)C4=O	MIC			H37Rv		0.0025 µg/mL
Cc1cc(C)c(C#N)c(SC(C(=O)NC(C)(C)C)c2ccccc2)n1	inhibition	BACTEC	12.5 µg/mL	H37Rv		-34%
C[C@H](CC[C@H]1OC1(C)C)[C@H]1CC[C@@]2(C)[C@@H]3CC[C@H]4C(C)(C)[C@H](O)CC[C@@]45C[C@@]35CC[C@]12C	MIC					8 µg/mL
N#CC1(c2nc3ccccc3o2)C(=O)C(=O)N(C2C3CC4CC(C3)CC2C4)C(=O)C1=O	MIC bound	resazurin		H37Rv		<6.25 µg/mL